HIV-1 LAI Vif substitutions under APOBEC3G selection

Source: Langley et al. 2025, preprint (doi:10.1101/2025.10.20.683452), supplementary data.

Protein: Vif of HIV-1 LAI (a laboratory-adapted subtype B strain). Residues 12-115 were scanned and are shown below; the first letter is residue 12.
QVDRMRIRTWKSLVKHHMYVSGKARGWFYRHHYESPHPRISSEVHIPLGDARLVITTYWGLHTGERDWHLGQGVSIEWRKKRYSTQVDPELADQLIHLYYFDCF

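Pooled viruses with one designed change each in Vif went through two 72 h rounds in SupT1 cells expressing APOBEC3G. Each of three replicates was sequenced after round two and set against the merged round-one pool. The overlap of vif with pol had been removed, so integrase is unaffected.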

Scale: log2 enrichment, wild type = 0; negative values mean that the variant was depleted.
Each entry names the wild-type residue, its position and the residue put in its place.
The median of three replicates is given, with the replicates in brackets.
Input reads are the counts in the merged round-one pool, before selection.
Not every substitution is listed.
The scan is noisy: the rank correlation of replicates is about 0.4 to 0.65, and variants with under about 50 input reads tend to read too high.
Positive scores are uncertain; some enriched variants did not exclude APOBEC3G in a separate test.

| substitution | input reads | log2 enrichment (median) |
|---|---|---|
| H42Y | 1606 | -1.39 (-1.16 / -3.20 / -1.39) |
| H43R | 400 | -0.87 (-0.87 / -3.06 / -0.66) |
| D99L | 1142 | -2.39 (-2.39 / -0.66 / -2.70) |
| Q105I | 309 | -0.98 (-1.24 / -0.98 / -0.64) |
| Y69A | 597 | -2.96 (-2.32 / -4.09 / -2.96) |
| E88L | 440 | -3.15 (-2.05 / -5.34 / -3.15) |
| I107Q | 37 | 3.37 (3.37 / 3.49 / -0.24) |
| K22W | 1452 | -0.42 (-0.42 / 0.05 / -0.78) |
| V85C | 417 | -1.66 (-1.66 / -2.88 / -1.50) |
| L81R | 31 | 1.11 (5.96 / -1.24 / 1.11) |
| L24E | 612 | 1.08 (1.91 / 1.08 / -0.60) |
| K22S | 34 | -0.09 (0.70 / -0.09 / -1.36) |
| Y111M | 172 | -0.69 (-0.69 / -3.10 / 0.32) |
| I51Q | 220 | -0.40 (3.80 / -2.02 / -0.40) |
| V98I | 430 | -2.20 (-2.20 / -3.08 / -0.04) |
| D61I | 36 | 0.26 (0.26 / -0.66 / 4.79) |
| E54G | 463 | -3.84 (-3.41 / -3.84 / -3.88) |
| G60D | 83 | 3.11 (5.21 / 3.11 / 2.20) |
| S86V | 540 | 0.27 (0.27 / 1.76 / -2.33) |
| Y69S | 404 | -1.13 (-0.96 / -3.19 / -1.13) |
| K91G | 40 | 4.88 (0.99 / 4.88 / 5.26) |
| D99W | 498 | -2.61 (-3.16 / -2.61 / -2.54) |
| I57K | 69 | 0.59 (-0.31 / 3.86 / 0.59) |
| D78V | 1710 | -0.89 (-1.42 / -0.89 / 2.05) |
| T68R | 48 | 0.49 (0.49 / 4.64 / 0.30) |
| T74I | 244 | -1.03 (-1.03 / 2.36 / -2.58) |
| L72I | 154 | -3.46 (-1.82 / -3.46 / -3.51) |
| P58A | 493 | -1.02 (-0.75 / -3.54 / -1.02) |
| R19L | 686 | 0.75 (0.75 / 4.22 / 0.28) |
| R41I | 551 | -0.52 (-0.52 / -2.24 / 1.55) |
| M29R | 485 | -3.29 (-3.10 / -3.42 / -3.29) |
| D14L | 892 | 0.49 (1.97 / 0.49 / -1.32) |
| V25N | 391 | -3.64 (-1.88 / -5.19 / -3.64) |
| G71A | 118 | -1.92 (-1.92 / -3.10 / 1.43) |
| E76F | 445 | -2.71 (-2.71 / -0.04 / -2.94) |
| L109V | 143 | -0.35 (-1.72 / -0.35 / 0.22) |
| Q97C | 318 | -0.69 (-0.69 / 2.87 / -0.76) |
| V31K | 1710 | -2.51 (-2.40 / -3.57 / -2.51) |
| L72K | 431 | -1.86 (-1.86 / -4.20 / -0.46) |
| D14P | 505 | -0.78 (-0.78 / 1.05 / -1.85) |
| S32T | 385 | -3.57 (-2.76 / -3.85 / -3.57) |
| S95T | 1138 | -0.59 (-0.59 / -1.21 / 0.10) |
| K91D | 461 | -0.82 (-2.13 / 0.32 / -0.82) |
| I18V | 611 | 0.57 (-0.46 / 0.57 / 3.49) |
| V13K | 411 | 0.06 (0.29 / -2.08 / 0.06) |
| I18H | 409 | -0.25 (-0.25 / 1.25 / -1.96) |
| H48D | 68 | 1.08 (1.08 / -1.08 / 1.36) |
| R41D | 428 | -2.63 (-2.63 / -3.71 / -0.98) |
| K91P | 668 | -4.36 (-4.43 / -4.36 / -3.49) |
| H42G | 498 | -3.34 (-2.21 / -4.13 / -3.34) |
| L24I | 629 | -2.07 (-2.41 / 1.54 / -2.07) |
| E101Q | 963 | -2.28 (-1.09 / -2.28 / -2.61) |
| G71Y | 51 | 0.57 (6.09 / -1.60 / 0.57) |
| P100T | 532 | -1.03 (-2.50 / 0.30 / -1.03) |
| S52L | 439 | -1.62 (-1.62 / 1.52 / -2.52) |
| R41S | 30 | -1.14 (-2.28 / 1.20 / -1.14) |
| V85G | 402 | -1.14 (-1.14 / 1.90 / -3.03) |
| E45I | 385 | -2.02 (-2.02 / -3.19 / -1.32) |
| G33W | 1353 | -1.21 (-2.09 / -1.13 / -1.21) |
| A35D | 823 | 0.98 (-0.16 / 0.98 / 1.46) |
| I107H | 550 | -1.91 (-1.91 / -3.70 / -1.50) |
| I107S | 298 | -2.75 (-2.75 / -3.66 / -0.68) |
| S53P | 710 | -0.05 (-0.05 / 4.09 / -0.69) |
| P58G | 283 | -1.31 (-0.65 / -2.45 / -1.31) |
| I57P | 1545 | -2.74 (-2.17 / -3.74 / -2.74) |
| A35L | 507 | -1.23 (-1.23 / 0.16 / -2.99) |
| L106P | 261 | -1.93 (-2.19 / -1.67 / -1.93) |
| P47L | 35 | -2.94 (-2.51 / -2.94 / -2.97) |
| C114V | 47 | -3.39 (-0.12 / -4.94 / -3.39) |
| V55E | 245 | -2.96 (-2.13 / -3.41 / -2.96) |
| S23P | 47 | 1.47 (1.47 / 4.41 / 1.25) |
| H42V | 2562 | -0.42 (1.08 / -2.73 / -0.42) |
| P58L | 91 | 1.08 (1.08 / 4.79 / 0.44) |
| Y44W | 506 | -0.84 (-0.31 / -1.61 / -0.84) |
| S23W | 235 | -3.15 (-2.91 / -3.15 / -3.38) |
| T68Y | 130 | 1.18 (0.89 / 1.18 / 6.19) |
| I18D | 465 | -2.59 (-2.13 / -3.72 / -2.59) |
| L59W | 812 | -3.58 (-3.57 / -4.21 / -3.58) |
| L24C | 522 | -2.32 (-2.31 / -3.87 / -2.32) |
| E76G | 363 | -1.22 (-1.48 / -1.05 / -1.22) |
| W21H | 370 | -0.62 (-0.66 / 1.34 / -0.62) |
| F115G | 116 | -4.65 (-4.22 / -4.65 / -4.69) |
| S23G | 775 | 1.81 (1.81 / 1.89 / -1.15) |
| R90I | 401 | -3.22 (-3.22 / 1.55 / -3.31) |
| F115T | 16 | -1.83 (-1.40 / -1.83 / -1.87) |
| G82N | 994 | -2.67 (-2.67 / -4.04 / -2.65) |
| I66F | 85 | 2.86 (-0.32 / 2.86 / 4.35) |
| Y30E | 738 | -0.83 (-0.83 / 0.04 / -0.95) |
| P47V | 497 | -0.07 (-0.83 / 1.19 / -0.07) |
| W79K | 1382 | 0.20 (1.18 / 0.20 / -1.10) |
| H28L | 729 | -0.50 (-0.50 / 0.87 / -0.67) |
| G84E | 370 | -1.23 (3.49 / -3.25 / -1.23) |
| W79P | 408 | -0.91 (-0.91 / -3.01 / 1.80) |
| W70Q | 391 | -3.93 (-3.16 / -3.93 / -4.86) |
| K34Y | 347 | -1.90 (-1.90 / -3.41 / -0.57) |
| S52N | 16 | -1.87 (-1.41 / -3.42 / -1.87) |
| R90N | 423 | -2.20 (-2.20 / 1.01 / -4.97) |
| F39P | 413 | -1.23 (-0.69 / -2.40 / -1.23) |
| W79D | 21 | 1.38 (1.38 / 6.12 / 1.20) |
| Y69R | 1149 | -3.90 (-2.09 / -4.13 / -3.90) |
| H42F | 465 | -1.34 (0.03 / -2.09 / -1.34) |
| Y40W | 16 | 1.29 (1.29 / -2.09 / 2.05) |
| W70F | 469 | -1.95 (2.83 / -2.99 / -1.95) |
| I66G | 34 | 0.99 (0.99 / 5.08 / -0.11) |
| V98Q | 653 | -3.25 (-3.25 / -2.95 / -3.48) |
| R19W | 388 | -2.78 (-2.78 / -4.26 / -1.55) |
| D78W | 419 | -3.70 (-4.49 / -3.55 / -3.70) |
| R15A | 355 | -1.60 (-1.60 / 1.34 / -1.66) |
| H108F | 353 | 0.40 (0.40 / 1.46 / -3.47) |
| D113N | 1896 | -0.82 (-0.82 / -0.52 / -3.17) |
| H28R | 468 | -3.97 (-3.40 / -3.97 / -4.36) |
| D14C | 41 | -0.40 (-0.40 / 4.66 / -0.88) |
| W89L | 540 | 0.16 (0.16 / 1.26 / -0.99) |
| Y69W | 568 | 0.28 (2.73 / -2.23 / 0.28) |
| V85W | 889 | -1.87 (-1.21 / -1.87 / -2.59) |
| L24G | 195 | -2.62 (-2.17 / -4.17 / -2.62) |
| T96A | 625 | -3.81 (-2.55 / -3.81 / -4.28) |
| T96D | 348 | -4.21 (-4.21 / -5.50 / -3.43) |
| K34Q | 422 | -1.31 (-0.30 / -2.07 / -1.31) |
| P100K | 98 | 0.11 (0.11 / -2.82 / 0.21) |

The opening 17 entries, copied out:

| substitution | input reads | log2 enrichment (median) |
|---|---|---|
| H42Y | 1606 | -1.39 (-1.16 / -3.20 / -1.39) |
| H43R | 400 | -0.87 (-0.87 / -3.06 / -0.66) |
| D99L | 1142 | -2.39 (-2.39 / -0.66 / -2.70) |
| Q105I | 309 | -0.98 (-1.24 / -0.98 / -0.64) |
| Y69A | 597 | -2.96 (-2.32 / -4.09 / -2.96) |
| E88L | 440 | -3.15 (-2.05 / -5.34 / -3.15) |
| I107Q | 37 | 3.37 (3.37 / 3.49 / -0.24) |
| K22W | 1452 | -0.42 (-0.42 / 0.05 / -0.78) |
| V85C | 417 | -1.66 (-1.66 / -2.88 / -1.50) |
| L81R | 31 | 1.11 (5.96 / -1.24 / 1.11) |
| L24E | 612 | 1.08 (1.91 / 1.08 / -0.60) |
| K22S | 34 | -0.09 (0.70 / -0.09 / -1.36) |
| Y111M | 172 | -0.69 (-0.69 / -3.10 / 0.32) |
| I51Q | 220 | -0.40 (3.80 / -2.02 / -0.40) |
| V98I | 430 | -2.20 (-2.20 / -3.08 / -0.04) |
| D61I | 36 | 0.26 (0.26 / -0.66 / 4.79) |
| E54G | 463 | -3.84 (-3.41 / -3.84 / -3.88) |